According to patent publication EP2021356B1, “HIV VACCINE” (priority 2006, dated 2007):
Like-named read-outs stand apart in the source and are kept apart here.

System: EL-4s3 cells
Conditions: mice immunised with Env67(2I) pulsed dendritic cells

In the case of `CC(C)[C@H](NC(=O)[C@H](CS)NC(=O)[C@H](C)NC(=O)[C@H](Cc1c[nH]cn1)NC(=O)[C@@H](NC(=O)[C@H](C)NC(=O)[C@H](Cc1c[nH]c2ccccc12)NC(=O)[C@@H](NC(=O)[C@@H](N)CC(N)=O)C(C)C)[C@@H](C)O)C(=O)O` [Env 67(2V)], the “recognition by Env67(2I) specific splenocytes in cytotoxicity assay” value is reported as “recognize” and the “recognition by Env67(2I) specific splenocytes in cytotoxicity assay” value (listed as I2V) is reported as “equal percent specific lysis”.
